A mixed list of measured activities; the numbers were collected in NIAID ChemDB.

Common to all: whole-cell or culture tests; organism: Mycobacterium avium complex

A number after MIC or MFC names an inhibition level or a share of isolates. Rows are shuffled and stem from different studies. Blank or dashed fields: not listed here.

{"compound": "NC1CN(c2cc3c(cc2F)c(=O)c(C(=O)O)cn3C2CC2)CC1C1CC1", "measure": "MIC90", "value": "16 µg/mL"}
{"compound": "NC[C@H]1O[C@H](O[C@H]2[C@H](O[C@@H]3O[C@H](CO)[C@@H](O)[C@H]3O)[C@@H](O)[C@H](N)C[C@@H]2N)[C@H](N)[C@@H](O)[C@@H]1O", "measure": "MIC", "strain": "Isolate 64", "value": "100 µg/mL"}
{"compound": "O=C(O)c1cn(C2CC2)c2c(F)c(N3CCN4CCC3C4)c(F)cc2c1=O", "measure": "MIC50", "value": "2 µg/mL"}
{"compound": "CN1CC2CC1CN2c1c(F)cc2c(=O)c(C(=O)O)cn(C3CC3)c2c1F", "measure": "MIC90", "strain": "14 strains", "value": "4 µg/mL"}
{"compound": "NNC(=O)c1ccncc1", "measure": "MIC", "strain": "13887 (serotype 14)", "value": "0.8 µg/mL"}
{"compound": "NCCC[C@H](N)CC(=O)N[C@H]1CNC(=O)[C@H]([C@H]2C[C@H](O)NC(N)=N2)NC(=O)/C(=C/NC(N)=O)NC(=O)[C@H](CO)NC(=O)[C@H](CO)NC1=O", "measure": "MIC", "strain": "Isolate 93", "value": "25 µg/mL"}
{"compound": "C[C@@H]1CN(c2nc3c(cc2F)c(=O)c(C(=O)O)cn3C(C)(C)C)C[C@H](C)N1", "measure": "MIC50", "strain": "14 strains", "value": "0.5 µg/mL"}
{"compound": "CC[C@@H](CO)NCCN[C@@H](CC)CO", "measure": "MIC", "strain": "N-259 (HIV-)", "value": "32 µg/mL"}
{"compound": "NC[C@H]1O[C@H](O[C@H]2[C@H](O)[C@@H](O[C@H]3O[C@H](CO)[C@@H](O)[C@H](N)[C@H]3O)[C@H](N)C[C@@H]2N)[C@H](O)[C@@H](O)[C@@H]1O", "measure": "MIC", "strain": "TMC 1406", "value": "0.39 µg/mL"}
{"compound": "CO[C@H]1/C=C/O[C@@]2(C)Oc3c(C)c(O)c4c(O)c(c(/C=N/N5CCN(C)CC5)c(O)c4c3C2=O)NC(=O)/C(C)=C\\C=C\\[C@H](C)[C@H](O)[C@@H](C)[C@@H](O)[C@@H](C)[C@H](OC(C)=O)[C@@H]1C", "measure": "MIC50", "strain": "52 isolates", "value": "6.25 µg/mL"}
{"compound": "CCN1CCN(c2c(F)cc3c(=O)c(C(=O)O)cn(C4CC4)c3c2OC)CC1", "measure": "MIC90", "strain": "14 strains", "value": "2 µg/mL"}
{"compound": "CC[C@H]1OC(=O)[C@H](C)[C@@H](O[C@H]2C[C@@](C)(OC)[C@@H](O)[C@H](C)O2)[C@H](C)[C@@H](O[C@@H]2O[C@H](C)C[C@H](N(C)C)[C@H]2O)[C@](C)(OC)C[C@@H](C)C(=O)[C@H](C)[C@@H](O)[C@]1(C)O", "measure": "MIC", "strain": "3214", "value": "2 µg/mL"}
{"compound": "COC1CCN(c2c(F)cc3c(=O)c(C(=O)O)cn(C4CC4)c3c2F)C1", "measure": "MIC50", "strain": "14 strains", "value": "1 µg/mL"}
{"compound": "NCC[C@H](O)C(=O)N[C@@H]1C[C@H](N)[C@@H](O[C@H]2O[C@H](CN)[C@@H](O)[C@H](O)[C@H]2O)[C@H](O)[C@H]1O[C@H]1O[C@H](CO)[C@@H](O)[C@H](N)[C@H]1O", "measure": "MIC", "strain": "1168", "value": "20 µg/mL"}
{"compound": "CC1CN(c2cc3c(cc2F)c(=O)c(C(=O)O)cn3-c2ccc(F)cc2F)CCN1", "measure": "MIC", "strain": "3215", "value": "4 µg/mL"}
{"compound": "NC[C@H]1O[C@H](O[C@H]2[C@H](O)[C@@H](O[C@H]3O[C@H](CO)[C@@H](O)[C@H](N)[C@H]3O)[C@H](N)C[C@@H]2N)[C@H](O)[C@@H](O)[C@@H]1O", "measure": "MIC", "strain": "N-325 (HIV-)", "value": "4 µg/mL"}
{"compound": "O=C(O)c1cn(C2CC2)c2c(F)c(N3CC4CCCC(C3)N4)c(F)cc2c1=O", "measure": "MIC50", "value": "2 µg/mL"}
{"compound": "CC1CN(c2c(F)cc3c(=O)c(C(=O)O)cn(C4CC4)c3c2F)CC(C)N1", "measure": "MIC", "strain": "1988557", "value": "1 µg/mL"}
{"compound": "CC1CN(c2nc3c(cc2F)c(=O)c(C(=O)O)cn3C(C)(C)C)CCN1", "measure": "MIC90", "strain": "14 strains", "value": "2 µg/mL"}
{"compound": "NCC[C@H](O)C(=O)N[C@@H]1C[C@H](N)[C@@H](O[C@H]2O[C@H](CN)[C@@H](O)[C@H](O)[C@H]2O)[C@H](O)[C@H]1O[C@H]1O[C@H](CO)[C@@H](O)[C@H](N)[C@H]1O", "measure": "MIC", "strain": "3219", "value": "32 µg/mL"}
{"compound": "COC1CCN(c2c(F)cc3c(=O)c(C(=O)O)cn(C4CC4)c3c2F)C1", "measure": "MIC50", "value": "1 µg/mL"}
{"compound": "CN[C@@H]1[C@H](O[C@H]2[C@H](O[C@H]3[C@H](O)[C@@H](O)[C@H](N=C(N)N)[C@@H](O)[C@@H]3N=C(N)N)O[C@@H](C)[C@]2(O)C=O)O[C@@H](CO)[C@H](O)[C@H]1O", "measure": "MIC", "strain": "13008 (serotype 20)", "value": "0.8 µg/mL"}
{"compound": "CCC1CN(c2c(F)cc3c(=O)c(C(=O)O)cn(C4CC4)c3c2OC)CCN1", "measure": "MIC90", "strain": "14 strains", "value": "4 µg/mL"}
{"compound": "CCn1cc(C(=O)O)c(=O)c2cc(F)c(N3CCS(=O)CC3)c(F)c21", "measure": "MIC90", "value": "16 µg/mL"}
{"compound": "O=C(O)c1cn(C2CC2)c2c(F)c(N3CC4C(CO)C4C3)c(F)cc2c1=O", "measure": "MIC", "strain": "1915112", "value": "16 µg/mL"}
{"compound": "CCn1cc(C(=O)O)c(=O)c2cc(F)c(N3CCNCC3)nc21", "measure": "MIC", "strain": "CIPT 14031003", "value": "40 µg/mL"}
{"compound": "CCC1CN(c2nc3c(cc2F)c(=O)c(C(=O)O)cn3C(C)(C)C)CCN1", "measure": "MIC90", "strain": "14 strains", "value": "4 µg/mL"}
{"compound": "O=C(O)c1cn(C2CC2)c2c(F)c(N3CCS(=O)(=O)CC3)c(F)cc2c1=O", "measure": "MIC", "strain": "PI12/39", "value": "2 µg/mL"}
{"compound": "NCCC(O)C(N)CC(=O)NC1CNC(=O)C(C2CCN=C(N)N2)NC(=O)/C(=C/NC(N)=O)NC(=O)C(CO)NC(=O)C(CO)NC1=O", "measure": "MIC", "strain": "TMC 1467", "value": "0.02 µg/mL"}
{"compound": "CC1CN(c2c(F)c(N)c3c(=O)c(C(=O)O)cn(C4CC4)c3c2F)CCN1C", "measure": "MIC", "strain": "1760694", "value": "8 µg/mL"}
{"compound": "C[C@@H]1CN(c2c(F)c(N)c3c(=O)c(C(=O)O)cn(C4CC4)c3c2F)C[C@H](C)N1", "method": "broth dilution", "measure": "MIC", "strain": "2", "value": "2 µg/mL"}
{"compound": "CC[C@@H](CO)NCCN[C@@H](CC)CO", "measure": "MIC", "strain": "3009-4", "value": "3.8 µg/mL"}
{"compound": "NC[C@@H]1O[C@H](O[C@H]2[C@@H](O)[C@H](O[C@@H]3[C@@H](O)[C@H](N)C[C@H](N)[C@H]3O[C@H]3O[C@H](CO)[C@@H](O)C[C@H]3N)O[C@@H]2CO)[C@H](N)[C@@H](O)[C@@H]1O[C@H]1O[C@H](CO)[C@@H](O)[C@H](O)[C@@H]1O", "measure": "MIC", "strain": "Isolate 122", "value": "50 µg/mL"}
{"compound": "CN[C@@H]1[C@H](O[C@H]2[C@H](O[C@H]3[C@H](O)[C@@H](O)[C@H](N=C(N)N)[C@@H](O)[C@@H]3N=C(N)N)O[C@@H](C)[C@]2(O)C=O)O[C@@H](CO)[C@H](O)[C@H]1O", "measure": "MIC", "strain": "Isolate C-46", "value": ">400 µg/mL"}
{"compound": "CC1CN(c2c(F)cc3c(=O)c(C(=O)O)cn(C4CC4)c3c2F)CC(C)N1", "measure": "MIC90", "value": "2 µg/mL"}
{"compound": "CO[C@H]1/C=C/O[C@@]2(C)Oc3c(C)c(O)c4c(O)c(c(/C=N/N5CCN(C)CC5)c(O)c4c3C2=O)NC(=O)/C(C)=C\\C=C\\[C@H](C)[C@H](O)[C@@H](C)[C@@H](O)[C@@H](C)[C@H](OC(C)=O)[C@@H]1C", "measure": "MIC", "strain": "1012", "value": "2 µg/mL"}
{"compound": "CCC1CCN(c2c(F)cc3c(=O)c(C(=O)O)cn(C4CC4)c3c2F)C1", "measure": "MIC", "strain": "PI12/39", "value": "2 µg/mL"}
{"compound": "CCn1cc(C(=O)O)c(=O)c2cc(F)c(N3CCN(C)CC3)cc21", "measure": "MIC", "strain": "CIPT 14031006", "value": "2 µg/mL"}
{"compound": "NC[C@@H]1O[C@H](O[C@H]2[C@@H](O)[C@H](O[C@@H]3[C@@H](O)[C@H](N)C[C@H](N)[C@H]3O[C@H]3O[C@H](CO)[C@@H](O)[C@H](O)[C@H]3N)O[C@@H]2CO)[C@H](N)[C@@H](O)[C@@H]1O", "measure": "MIC", "strain": "SK46/HIV+", "value": "6.25 µg/mL"}
{"compound": "NCC1CN(c2c(F)cc3c(=O)c(C(=O)O)cn(C4CC4)c3c2F)CC1c1ccccc1", "measure": "MIC90", "value": "16 µg/mL"}
{"compound": "O=C(O)c1cn(-c2ccc(F)cc2F)c2nc(N3CCNCC3)c(F)cc2c1=O", "measure": "MIC50", "strain": "14 strains", "value": "≥32 µg/mL"}
{"compound": "CC(C)N=c1cc2n(-c3ccc(Cl)cc3)c3ccccc3nc-2cc1Nc1ccc(Cl)cc1", "measure": "MIC", "strain": "CH-5/HIV+", "value": "0.25 µg/mL"}
{"compound": "O=C(O)c1cn(C2CC2)c2c(F)c(N3CC4CC3CN4)c(F)cc2c1=O", "measure": "MIC", "strain": "1760694", "value": "4 µg/mL"}
{"compound": "O=C(O)c1cn(C2CC2)c2c(F)c(N3CC4CC3CN4)c(F)cc2c1=O", "measure": "MIC90", "value": "8 µg/mL"}
{"compound": "CO[C@H]1/C=C/O[C@@]2(C)Oc3c(C)c(O)c4c(O)c(c(/C=N/N5CCN(C/C=C/c6ccccc6)CC5)c(O)c4c3C2=O)NC(=O)/C(C)=C\\C=C\\[C@H](C)[C@H](O)[C@@H](C)[C@@H](O)[C@@H](C)[C@H](OC(C)=O)[C@@H]1C", "measure": "MIC", "strain": "CH1", "value": "0.12 µg/mL"}
{"compound": "CN(C)CC1CCN(c2c(F)cc3c(=O)c(C(=O)O)cn(C4CC4)c3c2F)C1", "measure": "MIC", "strain": "1172733", "value": "0.5 µg/mL"}
{"compound": "CC1COc2c(N3CCN(C)CC3)c(F)cc3c(=O)c(C(=O)O)cn1c23", "measure": "MIC", "strain": "1423/HIV+", "value": "8 µg/mL"}
{"compound": "CC1CN(c2c(F)cc3c(=O)c(C(=O)O)cn(C4CC4)c3c2F)C(C)CN1", "measure": "MIC", "strain": "1988557", "value": "2 µg/mL"}
{"compound": "CO[C@H]1/C=C/O[C@@]2(C)Oc3c(C)c(O)c4c(O)c(c(/C=N/N5CCN(C)CC5)c(O)c4c3C2=O)NC(=O)/C(C)=C\\C=C\\[C@H](C)[C@H](O)[C@@H](C)[C@@H](O)[C@@H](C)[C@H](OC(C)=O)[C@@H]1C", "measure": "MIC", "strain": "551/HIV+", "value": "8 µg/mL"}

For reference, 5 entries again:

compound	method	measure	strain	value
O=C(O)c1cn(C2CC2)c2c(F)c(N3CC4CCCC(C3)N4)c(F)cc2c1=O	-	MIC50	-	2 µg/mL
CO[C@H]1/C=C/O[C@@]2(C)Oc3c(C)c(O)c4c(O)c(c(/C=N/N5CCN(C)CC5)c(O)c4c3C2=O)NC(=O)/C(C)=C\C=C\[C@H](C)[C@H](O)[C@@H](C)[C@@H](O)[C@@H](C)[C@H](OC(C)=O)[C@@H]1C	-	MIC50	52 isolates	6.25 µg/mL
CC(C)N=c1cc2n(-c3ccc(Cl)cc3)c3ccccc3nc-2cc1Nc1ccc(Cl)cc1	-	MIC	CH-5/HIV+	0.25 µg/mL
CC[C@@H](CO)NCCN[C@@H](CC)CO	-	MIC	3009-4	3.8 µg/mL
C[C@@H]1CN(c2nc3c(cc2F)c(=O)c(C(=O)O)cn3C(C)(C)C)C[C@H](C)N1	-	MIC50	14 strains	0.5 µg/mL